Measurements from PubChem BioAssay AID449762 (Southern Research Specialized Biocontainment Screening …, 2010).
The list shows a part of the results. Inconclusive results are not listed. Calls of active or inactive are those of the source. Rule as the data show it: inconclusive = inhibition above about 70% without an active follow-up result; inactive = below that.

Test: M. tuberculosis growth inhibition, HTS (AID 449762);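 also: bacterial growth assessed after seven days of incubation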
Conditions: M. tuberculosis H37Rv growth inhibition, 7H9 media; at 25 µM; stronger effect = higher value

Row | Compound | inhibition
1 | O=C(Nc1cc([As](=O)(O)O)ccc1O)c1ccccc1 | inactive: -4.4%
2 | O=[N+]([O-])c1ncn(CCn2ncnc2[N+](=O)[O-])n1 | inactive: 1.67%
3 | CC(C)(C)C(=O)NC(Sc1ccncn1)C(Cl)(Cl)Cl (stereo not drawn) | inactive: -2.32%
4 | O=C(O)CNc1ccc([As](=O)(O)O)cc1 | inactive: 6.66%
5 | O=[N+]([O-])c1cccc(NC2=NCC(CBr)S2)c1 (stereo not drawn) | inactive: -0.5%
6 | COc1ccc(C2=NCC(CBr)S2)cc1 (stereo not drawn) | inactive: 3.37%
7 | CCc1nc2c(n1)c1c(non1O)c1c2no[n+]1[O-] | inactive: 55%
8 | Cc1ccc(NP(=O)(Oc2ccccc2)Oc2ccccc2)nc1 | inactive: 2.83%
9 | CC(=O)N1C2C3N(C(C)=O)C1C1N(C(C)=O)C(C(N1C(C)=O)N3C(C)=O)N2C(C)=O | inactive: 2.33%
10 | O=[N+]([O-])c1cccc2n[nH]nc12 | inactive: -2.09%
11 | CCN(/C(=N/P(=O)(N1CCOCC1)N1CCOCC1)N1CCOCC1)c1ccc(OC)cc1 | inactive: 8.34%
12 | C[N+]1=C2C=CC=CC=C2SC12C([N+](=O)[O-])=CC([N+](=O)[O-])=C[C-]2[N+](=O)[O-] (stereo not drawn) | inactive: 3.65%
13 | Nc1ccc([As](=O)(O)c2ccc(N)cc2)cc1 | inactive: 1.59%
14 | CN(C)C(=O)OCCc1n(C)cc[n+]1C | inactive: 2.77%
15 | CC(C)=N/N=C(\N)N[N+](=O)[O-] | inactive: -6.83%
16 | Cc1ccc(N/C(=N/P(=O)(N2CCOCC2)N2CCOCC2)N2CCOCC2)cc1 | inactive: -0.93%
17 | CN(C(=O)Cc1ccc(Cl)c(Cl)c1)[C@H]1CCCC[C@H]1N1CCCC1 | inactive: -6.06%
18 | NC(=O)c1cc([N+](=O)[O-])cc([N+](=O)[O-])c1N | inactive: 2.88%
19 | CN1CCCC(OC(=O)C(c2ccccc2)c2ccccc2)C1 (stereo not drawn) | inactive: -5.87%
20 | Clc1ccc(Cl)c(NC2=NCC(CBr)S2)c1 (stereo not drawn) | inactive: 2.89%
21 | Cc1ccc(OP(=O)(Nc2nccs2)Oc2ccc(C)cc2)cc1 | inactive: 3.81%
22 | COc1ccccc1OP(=O)(Nc1ccc(C)cn1)Oc1ccccc1OC | inactive: 1.75%
23 | O=C(NC(Sc1ccncn1)C(Cl)(Cl)Cl)c1ccccc1 (stereo not drawn) | inactive: 3.97%
24 | Cc1c2non([O-])c-2c(C)[n+](=O)[n+]1[O-] | inactive: -8.85%
25 | Oc1ccccc1CNc1ccccn1 | inactive: 7.7%
26 | Nc1cc(N)c2nonc2c1[N+](=O)[O-] | inactive: -1.83%

Row | Compound | inhibition
27 | CC(C)CC(=O)NC(Sc1ccc(Cl)cc1)C(Cl)(Cl)Cl (stereo not drawn) | inactive: 4.99%
28 | O=P(Nc1nc2ccc(Cl)cc2s1)(c1ccccc1)c1ccccc1 | inactive: 1.68%
29 | CC(=O)Nc1ccc([As](=O)(O)O)cc1 | inactive: -2.46%
30 | O=C(O)c1ccccc1[As](=O)(O)O | inactive: -2.48%
31 | CN(C(=O)Cc1ccc(Cl)c(Cl)c1)[C@H]1CCCC[C@@H]1N1CCCC1 | inactive: -2.79%
32 | Cc1ccc(NP(=O)(Oc2ccccc2F)Oc2ccccc2F)nc1 | inactive: -0.24%
33 | Cc1cc(SC(NC(=O)c2ccc(F)cc2)C(Cl)(Cl)Cl)ncn1 (stereo not drawn) | inactive: 3.09%
34 | CCOP(=O)(Nc1ccccc1)OCC | inactive: 1.12%
35 | O=[N+]([O-])c1cc([N+](=O)[O-])c(CCN2CCOCC2)c([N+](=O)[O-])c1 | inactive: 51.2%
36 | Nc1cccc2ccc([As](=O)(O)O)cc12 | inactive: -3.37%
37 | CCN(N=Nc1nonc1N)c1nonc1N | inactive: 1.38%
38 | Cc1ccc(NP(=O)(Oc2cccc(C)c2)Oc2cccc(C)c2)nc1 | inactive: -1.33%
39 | CCOC(=O)NC(Sc1ccccc1)C(Cl)(Cl)Cl (stereo not drawn) | inactive: -5%
40 | c1ccc(-c2nn[nH]n2)c(-c2nn[nH]n2)c1 | inactive: -12.8%
41 | O=C(NC1CCS(=O)(=O)C1)NP(=S)(Oc1ccccc1)Oc1ccccc1 (stereo not drawn) | inactive: -2.34%
42 | CCNC(=S)/N=C(\N)N[N+](=O)[O-] | inactive: 1.2%
43 | CCC(=O)N1C2C3N(C(=O)CC)C1C1N(C(=O)CC)C(C(N1C(=O)CC)N3C(=O)CC)N2C(=O)CC | inactive: -6.81%
44 | O=C(OC1CN2CCC1CC2)c1ccccc1 (stereo not drawn) | inactive: -4.47%
45 | CC(=O)NC(SC(=S)N(CC(C)C)CC(C)C)C(Cl)(Cl)Cl (stereo not drawn) | inactive: 4.23%
46 | Cc1ccc(OP(=O)(Nc2ccccn2)Oc2ccc(C)cc2)cc1 | inactive: -2.68%
47 | COC(=O)c1cc2c(s1)N=C(c1ccccc1)N(C)P2(=O)N1CCOCC1 (stereo not drawn) | inactive: -11.9%
48 | CN(C)C(=O)Oc1noc2ccccc12 | inactive: -4.12%
49 | CC(NC(=O)COC(=O)C(O)(c1ccccc1)c1ccccc1)c1ccccc1 (stereo not drawn) | inactive: -10.4%
50 | Cc1ccccc1OP(=O)(Nc1ccccn1)Oc1ccccc1C | inactive: -2.05%
51 | CCOc1ccc(C2=NCC(CBr)S2)cc1 (stereo not drawn) | inactive: -1.96%
52 | O=P1(Nc2nc3ccc(Cl)cc3s2)COc2ccccc2O1 (stereo not drawn) | inactive: -2.64%

Row | Compound | inhibition
53 | CC(C)(C)C(=O)NC(Sc1ccccc1)C(Cl)(Cl)Cl (stereo not drawn) | inactive: -2.37%
54 | C[C@H]1OP(=O)(Oc2ccccc2)C[C@@H]2O[C@@H]21 (stereo partly drawn) | inactive: -1.15%
55 | C[C@@H]1C=CCP(=O)(Oc2ccccc2)O1 (stereo partly drawn) | inactive: -4.78%
56 | Cc1ccccc1CN(C)C(=O)COC(=O)C(O)(c1ccccc1)c1ccccc1 | inactive: -2.65%
57 | CC(=O)c1ccc(N2CC2c2ccncc2)cc1 (stereo not drawn) | inactive: -9.24%
58 | CC(=O)Nc1ccc(Oc2c([N+](=O)[O-])cc([N+](=O)[O-])cc2[N+](=O)[O-])cc1 | inactive: 3.45%
59 | CC(=O)Nc1ccc([As](=O)(O)O)c(O)c1 | inactive: -1.4%
60 | O=P(Nc1nccs1)(c1ccccc1)c1ccccc1 | inactive: -0.12%
61 | CC(C)C(=O)NC(Sc1ccccc1)C(Cl)(Cl)Cl (stereo not drawn) | inactive: 4.25%
62 | c1nnnn1CCn1cnnn1 | inactive: -11.2%
63 | CN(C)C1(CNC(=O)c2ccc(Cl)c(S(N)(=O)=O)c2)CCCCC1 | inactive: 4.14%
64 | O=P(Nc1ccccn1)(c1ccc(Br)cc1)c1ccc(Br)cc1 | inactive: 22.4%
65 | C[C@H]1OP(=O)(Oc2ccccc2)[C@H](O)[C@H](O)[C@H]1N=[N+]=[N-] (stereo partly drawn) | inactive: -4.12%
66 | O=P(Nc1nc2ccccc2s1)(c1ccccc1)c1ccccc1 | inactive: -2.63%
67 | O=[As](O)(c1ccccc1)c1ccc(O)cc1 | inactive: -14.8%
68 | O=[N+]([O-])c1ncn(CCn2cnc([N+](=O)[O-])n2)n1 | inactive: 3.76%
69 | O=C(OC1CN2CCC1CC2)c1cccc(Cl)c1 (stereo not drawn) | inactive: -6.37%
70 | C(Cc1nn[nH]n1)Cc1nn[nH]n1 | inactive: 0.27%
71 | Nc1ccc([As](=O)(O)c2ccc([N+](=O)[O-])cc2)cc1 | inactive: 4.13%
72 | Cc1ccc(C(=O)OC2CN3CCC2CC3)cc1 (stereo not drawn) | inactive: -18.5%
73 | CC1CCC(C(C)C)C(OP(=O)(Nc2ccccn2)c2ccccc2)C1 (stereo not drawn) | inactive: 4.72%
74 | Cc1nn(-c2ccccc2)c2c1P(=O)(N1CCOCC1)N(C)C(c1ccccc1)=N2 (stereo not drawn) | inactive: -1.66%
75 | CN(C)C1(CNC(=O)c2ccc(S(C)(=O)=O)cc2)CCCCC1 | inactive: 3.69%
76 | O=C(/C=C/c1ccccc1)OC1CN2CCC1CC2 (stereo not drawn) | inactive: 2.38%
77 | O=P1(Nc2ncccn2)COc2ccccc2OC1 | inactive: -5.86%
78 | Nc1cccc([As](=O)(O)c2ccccc2)c1 | inactive: -5.47%

Row | Compound | inhibition
79 | Cc1ccc(OCC(=O)OC2CN3CCC2CC3)cc1 (stereo not drawn) | inactive: -0.76%
80 | O=[As](O)(c1cccs1)c1cccs1 | inactive: 0.29%
81 | NS(=O)(=O)c1cccc(NC(=O)COC(=O)C(O)(c2ccccc2)c2ccccc2)c1 | inactive: -5.91%
82 | O=P1(Nc2ccc(Br)cn2)COc2ccccc2OC1 | inactive: -6.49%
83 | CCOP(=O)(NC(=NC(C)c1ccccc1)NC(C)c1ccccc1)OCC (stereo not drawn) | inactive: -6.15%
84 | O=P1(Nc2ccccn2)COc2ccccc2OC1 | inactive: -0.09%
85 | CCOP(=O)(Nc1ccc(C)cn1)OCC | inactive: 2.56%
86 | CN(CCCl)Cc1cc(Cl)c(NC2=NCCN2)c(Cl)c1 | inactive: 6.02%
87 | CC(C)(C)C(=O)NC(Sc1ncccn1)C(Cl)(Cl)Cl (stereo not drawn) | inactive: -3.66%
88 | Clc1n[nH]nc1-c1nn[nH][15n]1 | inactive: 2.7%
89 | COc1ccccc1CNC(=O)COC(=O)C(O)(c1ccccc1)c1ccccc1 | inactive: -1.19%
90 | CN(C(=O)Cc1ccc(Cl)c(Cl)c1)[C@@H]1CCCC[C@H]1N1CCCC1 | inactive: 2.58%
91 | CC(C)/C=N\N=C(\N)N[N+](=O)[O-] | inactive: -0.73%
92 | CC1(CBr)Cn2c(nc3ccccc3c2=O)S1 (stereo not drawn) | inactive: -6.61%
93 | O=[As](O)(c1ccccc1Br)c1ccccc1Br | inactive: 7.17%
94 | O=C(OC1CN2CCC1CC2)c1ccc(Cl)cc1 (stereo not drawn) | inactive: -13.8%
95 | CS(=O)(=O)c1ccc(Cl)c(NC(=O)COC(=O)C(O)(c2ccccc2)c2ccccc2)c1 | inactive: 3.64%
96 | O=[As](O)(O)c1cccnc1 | inactive: -5.07%
97 | COc1cc(C(=O)NCC2(N3CCOCC3)CCCCC2)cc(Cl)c1OC(C)C | inactive: -0.96%
98 | Cc1cccc(OCC(=O)OC2CN3CCC2CC3)c1 (stereo not drawn) | inactive: -5.14%
99 | O=[As](O)(c1cccc(O)c1)c1cccc(O)c1 | inactive: 13.2%
100 | Nc1cccc2c([As](=O)(O)O)cccc12 | inactive: -6.59%
101 | CCCOP(=S)(Nc1nc(N)cc(=O)[nH]1)OCCC | inactive: -5.38%
102 | CCOP(=O)(Nc1cccc2ccccc12)OCC | inactive: 4.75%
103 | COc1cc(C2NCCC3(OCCO3)C2(C)C)cc(OC)c1OC (stereo not drawn) | inactive: -1.41%
